Results of unrelated studies side by side (data: NIAID ChemDB).

Shared fields: whole-cell or culture tests; agent: Influenza A virus; cells: MDCK; measure: EC50

Two numbers with a dash give a range or band. Conditions beyond the fields shown may differ between rows. ECn is the concentration giving n% inhibition of infection, replication or growth. An empty or dashed field is not shown.

structure,strain or isolate,method,result
NC12CC3CC(CC(C3)C1)C2,H1N1 FM/1/47,plaque count,0.3 µg/mL
NC(=O)c1ncn([C@@H]2O[C@H](CO)[C@@H](O)[C@H]2O)n1,A/Brazil,cytopathic effect,6.25 µg/mL
CC(=O)N[C@H]1[C@H]([C@H](O)[C@H](O)CO)OC(C(=O)O)=C[C@@H]1N,H3N2 A/AICHI/2/68,plaque count,0.65 µM
C/C=C1\[C@H](OC2O[C@H](CO)[C@@H](O)[C@H](O)[C@H]2O)OC=C(C(=O)OC)[C@H]1CC(=O)OCC1O[C@H](OCCc2ccc(O)c(O)c2)[C@@H](O)[C@H](O)[C@H]1O,H3N2,cytopathic effect,>100 µM
CC(C)/C=C1\N=C(CC(C)C)C(=O)N(O)C1=O,,,5.9 µM
CC(N)C12CC3CC(CC(C3)C1)C2,H1N1 A/FM/1/47,,0.62 µM
CC(N)C12CC3CC(CC(C3)C1)C2,,plaque count,0.01 µg/mL
Nc1ccc(S(=O)(=O)O)c2ccccc12,Influenza A/Ishikawa/7/82 (H3N2),cytopathic effect,>200 µM
Nc1ccn([C@@H]2C[C@H](CO)[C@@H](O)[C@H]2O)c(=O)n1,,cytopathic effect,4.5 µg/mL
C#Cc1c(C(N)=O)ncn1[C@@H]1O[C@H](CO)[C@@H](O)[C@H]1O,Ishikawa,cytopathic effect,0.9 µg/mL
NC(=O)c1ncn([C@@H]2O[C@H](CO)[C@@H](O)[C@H]2O)n1,H1N1 A/WSN,,50 µM
NC(=O)c1c[se]c([C@@H]2O[C@H](CO)[C@@H](O)[C@H]2O)n1,A/NWS/33,cytopathic effect,0.7 µg/mL
CCO[C@@H]([C@@H]1OC(C(=O)O)=C[C@H](N=C(N)N)[C@H]1NC(C)=O)[C@H](O)CO,A/Yamagata/32/89,plaque count,0.007 µg/mL
C/C=C1\[C@H](OC2O[C@H](CO)[C@@H](O)[C@H](O)[C@H]2O)OC=C(C(=O)O)[C@H]1CC(=O)OCCc1ccc(O)cc1,H3N2,cytopathic effect,>100 µM
C#Cc1c(C(N)=O)ncn1[C@@H]1O[C@H](CO)[C@@H](O)[C@H]1O,Influenza A/Ishikawa/7/82 (H3N2),plaque count,2.3 µg/mL
O=[N+]([O-])c1c(C2CCCCCC2)ncnc1N1CC[N+]2(CC1)CC[N+]1(CCN(c3ncnc(C4CCCCCC4)c3[N+](=O)[O-])CC1)CC2,,cytopathic effect,>70 µg/mL
N=C(N)c1ncn([C@@H]2O[C@H](CO)[C@@H](O)[C@H]2O)n1,H1N1 A/PR/8/34,neutral red,18 µg/mL
C/C=C1/[C@H](O[C@@H]2O[C@H](CO)[C@@H](O)[C@H](O)[C@H]2O)OC=C(C(=O)OC)[C@H]1CC(=O)OCCc1ccc(O)c(O)c1,H3N2,cytopathic effect,>100 µM
O=[N+]([O-])c1c(Cl)ncnc1N1CC[N+]2(CC1)CC[N+]1(CCN(c3ncnc(Cl)c3[N+](=O)[O-])CC1)CC2,,cytopathic effect,>70 µg/mL
CC(N)C12CC3CC(CC(C3)C1)C2,Influenza A/Mississippi/1/85 (H3N2),plaque count,<0.27 µM
CCC(CC)O[C@@H]1C=C(C(=O)O)C[C@H](N)[C@H]1NC(C)=O,A/Victoria/3/75,plaque count,0.03 µM
C=CCO/N=C(\C#N)C(=O)NCC1=NOC(C(C)(C)C)C1,A/WSN/33,cytopathic effect,1–10 µg/mL
COc1cc(OC)n2sc(=NC(=O)COc3ccc(Cl)cc3Cl)nc2n1,H1N1,plaque count,>20 µM
CC(N)C12CC3CC(CC(C3)C1)C2,Influenza A/Sydney/05/97 (H3N2),neutral red / visual reading,0.06 µM
CC(=O)N[C@H]1[C@H]([C@H](O)[C@H](O)CO)OC(C(=O)O)=C[C@@H]1O,B/Victoria/102/85,plaque count,10 µM
NC(=O)c1ncn([C@@H]2O[C@H](CO)[C@@H](O)[C@H]2O)c1O,,plaque count,12 µg/mL
O=[N+]([O-])c1ccc(N2CC[N+]3(CC2)CC[N+]2(CCN(c4ccc([N+](=O)[O-])c5nonc45)CC2)CC3)c2nonc12,,cytopathic effect,>70 µg/mL
NC(=O)c1nc(F)c[nH]c1=O,H1N1 A/PR/8/34,plaque count,1 µM
CSc1nc(Cl)c([N+](=O)[O-])c(N2CC[N+]3(CC2)CC[N+]2(CCN(c4nc(SC)nc(Cl)c4[N+](=O)[O-])CC2)CC3)n1,,cytopathic effect,>70 µg/mL
CCNC(=O)NC(=O)/C(C#N)=N/OC,A/WSN/33,cytopathic effect,>100 µg/mL
CC(=O)N[C@H]1[C@H]([C@H](O)[C@H](O)CO)OC(C(=O)O)=C[C@@H]1N,B/Victoria/102/85,plaque count,0.065 µM
CC(C)CCCC(C)C1CCC2C3CC=C4CC(O)CCC4(C)C3CCC12C,Influenza A/Ishikawa/7/82 (H3N2),cytopathic effect,>200 µM
C1C2C3CC4C1C1C2NC3C41,Influenza A/Victoria/3/75 (H3N2),plaque count,>25 µg/mL
CO/N=C(/C#N)C(=O)NCC1=NOC(C)(C)C1,A/WSN/33,cytopathic effect,>100 µg/mL
NC12CC3CC(CC(C3)C1)C2,Influenza A/Ishikawa/7/82 (H3N2),plaque count,10 µg/mL
NC12CC3CC(CC(C3)C1)C2,A/HONG KONG/11/88,plaque count,<3 µM
Cc1nc(C2CCCCCC2)c([N+](=O)[O-])c(N2CC[N+]3(CC2)CC[N+]2(CCN(c4nc(C)nc(C5CCCCCC5)c4[N+](=O)[O-])CC2)CC3)n1,,cytopathic effect,>70 µg/mL
Clc1ccc(-c2csc(N3N=C(c4cccs4)CC3c3ccc(Cl)cc3)n2)cc1,Influenza A/Ishikawa/7/82 (H3N2),cytopathic effect,>200 µg/mL
O=C(O[C@@H]1Cc2c(O)cc(O)cc2O[C@@H]1c1cc(O)c(=O)c2c(O)c(O)cc([C@H]3Oc4cc(O)cc(O)c4C[C@H]3OC(=O)c3cc(O)c(O)c(O)c3)c2c1)c1cc(O)c(O)c(O)c1,H1N1 A/Yamagata/120/86,plaque count,50 µM
Nc1ccc(S(=O)(=O)O)c2cc(S(=O)(=O)O)cc(O)c12,Influenza A/Ishikawa/7/82 (H3N2),cytopathic effect,>200 µM
C[N+]1(CC[N+]2(C)CCN(c3ncnc(Cl)c3[N+](=O)[O-])CC2)CCN(c2ncnc(Cl)c2[N+](=O)[O-])CC1,,cytopathic effect,>70 µg/mL
Nc1ncnc2c1ncn2[C@@H]1C[C@@H](O)[C@H](CO)O1,,,>100 µM
C=CCO/N=C(\C)C(=O)NCC1=NOC(C(C)(C)C)C1,A/WSN/33,cytopathic effect,1–10 µg/mL
Nc1ccn([C@@H]2C[C@@H](O)[C@H](CO)O2)c(=O)n1,,,>100 µM

The last 2 rows once more:

structure | strain or isolate | method | result
C=CCO/N=C(\C)C(=O)NCC1=NOC(C(C)(C)C)C1 | A/WSN/33 | cytopathic effect | 1–10 µg/mL
Nc1ccn([C@@H]2C[C@@H](O)[C@H](CO)O2)c(=O)n1 |  |  | >100 µM